This note sets out measurements from paper PMC9486951, “Tetramate Derivatives by Chemoselective Dieckmann Ring Closure of threo-Phenylserines and Their Antibacterial Activity” (The Journal of Organic Chemistry, 2022).

Molecules are shown by their SMILES.

The data set concerns Hela cell line. Kind of data set: Cytotoxicity assay (Alamar blue), Hela. The conditions noted are these: EC50 Hela cell line/MIC(S. aureus). It is filed as cell-based, human. The method, then: The selectivity of these compounds for activity against prokaryotic cells over mammalian cells was analyzed by considering their cytotoxicity against Hela, heK-293, CaCo, and MDCK […] cell lines, allowing estimation of the therapeutic ratio [EC50Hela cell line/MIC(S. aureus)] (Table 3). […]
Screening of compounds were performed by Oxford Antibiotic Group, Austria. For MIC determination by broth dilution assay, the samples were tested in a primary 96 well plates screening assay, in duplicate. The compounds were diluted in Mueller Hinton Broth (MHB) for bacterial screening to a stock solution of 1000 µg/mL, serial diluted and overlaid with a microbe solution in a concentration of 10^4 CFU/ml. The plates were incubated for […]
For cytotoxicity testing, the synthesized compounds were tested against four different cell lines: HeLa, HEK 293, MDCK and CaCo. The cells were seeded in a 96 well plate and incubated until a confluence of 80% was achieved (under physiological conditions - 37°C, 5% CO2 and 95% humidity). The samples were tested by serial dilution in triplicates with starting concentration of 250 µg/mL. After 24 and 48 hours the survival of cells was evaluated by microscope and measured with Alamar blue. IC50 values were obtained from the calibration curves. […]
On the technique in general: The colour change of resazurin is a common sign of viable cells or microbes.
Turning to `CCOC(=O)C1=C(O)[C@@H]2[C@@H](c3ccc(Cl)cc3)O[C@@H](C(C)(C)C)N2C1=O` (racemic) [10d], the “therapeutic ratio (using Hela cell lines)” value (“therapeutic ratio” for short) was determined as 2.

For `CC(C)(C)[C@@H]1O[C@H](c2ccccc2)[C@H]2C(O)=C(C(=O)NC34CC5CC(CC(C5)C3)C4)C(=O)N21` (mixture of isomers) [12a], the “therapeutic ratio” value worked out at 26.

Regarding `CCOC(=O)C1=C(O)[C@@H]2[C@@H](c3ccc(Br)cc3)O[C@@H](C(C)(C)C)N2C1=O` (racemic) [10e], the “therapeutic ratio” value was found to be 2.

As to `CCOC(=O)C1=C(O)[C@@H]2[C@@H](c3ccc(F)cc3)O[C@@H](C(C)(C)C)N2C1=O` (racemic) [10c], the “therapeutic ratio” value turned out to be 1.
